According to article PMC3597823:

How the values were obtained:
Assay in all cases: SPR
[1] = biological target: N1 peptide P2 ([change]–94), Myc-tagged (murine)
[2] = biological target: N1 peptide P1 ([change]–94), Myc-tagged (murine)
[3] = biological target: N1 peptide P3 ([change]–94), Myc-tagged (murine)

synthetic Aβ_(1–42) oligomers (Aβ-derived diffusible ligands) (from UniProt P05067) (peptide)
Kd [1]: 0.0263 µM | kon [1]: 5210 M⁻¹ s⁻¹ | Kd [2]: 0.0128 µM | koff [2]: 0.000111 s⁻¹ | decrease of binding against N1 [3]: 92%
